System: Toxoplasma gondii
Assay: Selectivity ratio of EC50 for wild type Toxoplasma gondii expressing endogenous IMPDH to EC50 for hypoxanthine-guanine-xanthine phosphoribosyltransferase gene knock out Toxoplasma gondii expressing Cryptosporidium parvum IMPDH
Assay type: functional

In the case of O=C(Cn1c(-c2ccccn2)nc2ccccc21)Nc1ccc2ccccc2c1, the “Ratio EC50” value is reported as 9.

From ChEMBL document CHEMBL1955781, “Structure-activity relationship study of selective benzimidazole-based inhibitors of Cryptosporidium parvum IMPDH” (Bioorg Med Chem Lett, 2012)
